Pooled drug test results. Numbers come from NIAID ChemDB, via PubChem.

Common to all: cytotoxicity tests; cell line: A549; endpoint: CC50

Lines come from different laboratories, so protocols vary. CCn is the concentration with n% toxicity to the cells.

compound	value
COc1cc([C@@H]2c3cc4c(cc3[C@H](OC(C)=O)[C@@H]3COC(=O)[C@H]23)OCO4)cc2c1OCCO2	2.2 µM
Nc1ccn(C[C@@H](CO)OCP(=O)(O)O)c(=O)n1	632 µM
NC(=O)c1nc(F)c[nH]c1=O	>1000 µg/mL
O=c1c2ccccc2[se]n1-c1ccccn1	120 µg/mL
CCCCN=C(N)c1ccc(N2CCCN(c3ccc(C(N)=NCCCC)cc3)CC2)cc1	>18.6 µg/mL
Cn1[se]c2c(ccc[n+]2C)c1=O	15.6 µg/mL
COc1cc([C@@H]2c3cc4c(cc3[C@H](OC(C)=O)[C@@H]3COC(=O)[C@@H]23)OCO4)cc2c1OC1(N3CCOCC3)CCCCC1O2	8.66 µM
Nc1ccn([C@@H]2C[C@@H](O)[C@H](CO)O2)c(=O)n1	>100 µM
COc1cc([C@@H]2c3cc4c(cc3[C@H](OC(C)=O)[C@@H]3COC(=O)[C@@H]23)OCO4)cc2nc3cc(C)c(C)cc3nc12	4.8 µM
O=c1c2ccccc2[se]n1-c1ccccc1	15 µg/mL
C(=C1/CCCN(c2ccc(C3=NCCN3)cc2)C1)/c1ccc(C2=NCCN2)cc1	47.6 µg/mL
Cc1ccc(-n2[se]c3ccccc3c2=O)nc1	200 µg/mL
COc1cc([C@@H]2c3cc4c(cc3[C@H](O)[C@H]3COC(=O)[C@H]23)OCO4)cc(OC)c1OC	0.012 µM
O=c1[nH][se]c2ccccc12	3 µg/mL
COC1=CC([C@@H]2c3cc4c(cc3[C@H](OC(C)=O)[C@@H]3COC(=O)[C@H]32)OCO4)=CC(=O)C1=O	0.59 µM
c1cc(C2=NCCN2)ccc1CC1CCCN(c2ccc(C3=NCCN3)cc2)C1	27.7 µg/mL
Nc1ccn([C@@H]2C[C@@H](O)[C@H](CO)O2)c(=O)n1	>100 µM
COc1cc([C@@H]2c3cc4c(cc3[C@H](OC(C)=O)[C@@H]3COC(=O)[C@@H]23)OCO4)cc2c1OC1(N3CCCC3)CCCCC1O2	2.02 µM
NC(=NC1CC1)c1ccc(N2CCN(c3ccc(C(N)=NC4CC4)cc3)CC2)cc1	>60.2 µg/mL
COc1cc([C@@H]2c3cc4c(cc3[C@H](OC(C)=O)[C@@H]3COC(=O)[C@H]23)OCO4)cc2c1OCO2	2.27 µM
CN=C(N)c1ccc(N2CCN(c3ccc(C(N)=NC)cc3)CC2)cc1	>100 µg/mL

A second listing of 2 rows from above:

compound,value
Cc1ccc(-n2[se]c3ccccc3c2=O)nc1,200 µg/mL
c1cc(C2=NCCN2)ccc1CC1CCCN(c2ccc(C3=NCCN3)cc2)C1,27.7 µg/mL